In patent US6913895B1, “Methods for assaying transglycosylase reactions, and for identifying inhibitors thereof” (Advanced Medicine East, Inc., priority 1999, dated 2005):

System: S. aureus 33591 (MRSA)
Conditions: methicillin resistant

| Structure (SMILES) | MIC [µg/mL] |
| --- | --- |
| C[C@@H]1O[C@@H](O[C@H]2[C@H](Oc3c4cc5cc3Oc3ccc(cc3Cl)[C@@H](O)[C@@H](N)C(=O)N[C@@H](CC(N)=O)C(=O)N[C@H]5C(=O)NC3C(=O)NC(C(=O)N[C@H](C(=O)O)c5cc(O)cc(O)c5-c5cc3ccc5O)[C@H](O)c3ccc(c(Cl)c3)O4)O[C@H](CO)[C@@H](O)[C@@H]2O)C[C@](C)(NCc2ccc(-c3ccc(Cl)cc3)cc2)[C@@H]1O (mixture of isomers) [CBP-dl-vancomycin, chlorobiphenyl-desleucyl-vancomycin] | 6.26 (≈ 4.11 µM) |
| CN[C@H](CC(C)C)C(=O)N[C@H]1C(=O)N[C@@H](CC(N)=O)C(=O)N[C@H]2C(=O)N[C@H]3C(=O)N[C@H](C(=O)N[C@H](C(=O)O)c4cc(O)cc(O)c4-c4cc3ccc4O)[C@H](O)c3ccc(c(Cl)c3)Oc3cc2cc(c3O[C@@H]2O[C@H](CO)[C@@H](O)[C@H](O)[C@H]2O[C@H]2C[C@](C)(NCc3ccc(-c4ccc(Cl)cc4)cc3)[C@H](O)[C@H](C)O2)Oc2ccc(cc2Cl)[C@H]1O [CBP-vancomycin, chlorobiphenyl-vancomycin] | 0.25 (≈ 0.152 µM) |

Converted amounts (≈) assume the structure as drawn.
